Source: patent US12258540B2, “Environmentally compatible detergents for inactivation of lipid-enveloped viruses” (TAKEDA PHARMACEUTICAL COMPANY LIMITED, priority 2017, dated 2025)
Like-named read-outs stand apart in the source and are kept apart here.

How the values were obtained:
[1] = system: xenotropic murine leukemia virus (X-MuLV); conditions: S/D mixture with PS80 and TnBP, HSA-containing liquid
[2] = system: bovine viral diarrhea virus (BVDV); conditions: single detergent 0.1%±0.01%, buffer containing HSA, 14° C.±1° C., within 5 minutes

4-tert-octylbenzyl alcohol polyethoxylate
virus reduction factor (RF), X-MuLV ([1]; 0.08%-0.1% detergent, 19° C.±1° C., within 10 minutes): over 2
virus reduction factor (RF), X-MuLV ([1]; 0.1% detergent, 1° C.±1° C., within 10 minutes): over 2
virus reduction factor (RF), X-MuLV ([1]; 0.1% detergent, 19° C.±1° C., within 30 min): around 4
virus reduction factor (RF), BVDV [2]: around 5
